Experimental data published in patent US3945994A, “Novel acid compounds” (Gist-Brocades N.V., priority 1973, dated 1976).
≈ marks a conversion by molar mass, not a printed value.

Tests used:
Test in all cases: agar serial dilution test, MIC
Conditions in all cases: 24 hours at 37°C
[1] = system: Diplococcus pneumoniae L 54; format: cell-based
Escherichia coli U 20 = format: cell-based
[2] = system: Haemophilus influenzae A 1030; format: cell-based
[3] = system: Klebsiella pneumoniae A 809; format: cell-based
[4] = system: Pasteurella multocida A 723; format: cell-based
Proteus mirabilis H 3 = format: cell-based
Proteus morganii 2241 = format: cell-based
Proteus rettgeri A 821 = format: cell-based
[5] = system: Pseudomonas aeruginosa 2396; format: cell-based
[6] = system: Pseudomonas aeruginosa H 10; format: cell-based
[7] = system: Pseudomonas aeruginosa Wyeth A 1058; format: cell-based
Salmonella dublin P 43 = format: cell-based
[8] = system: Salmonella typhimurium R 127; format: cell-based
[9] = system: Staphylococcus aureus A 2000; format: cell-based
[10] = system: Staphylococcus aureus A 2001; format: cell-based
[11] = system: Staphylococcus aureus A 321; format: cell-based
[12] = system: Staphylococcus aureus A 355'; format: cell-based
[13] = system: Streptococcus faecalis L 80; format: cell-based
[14] = system: Streptococcus haemolyticus A 266; format: cell-based
[15] = system: Brucella melitensis A 488
Proteus mirabilis L 93 = system: Proteus mirabilis L 93
Shigella equirulis T 3 = system: Shigella equirulis T 3

## CC1(C)S[C@@H]2[C@H](NC(=O)[C@H](NC(=O)NP(C)(C)=O)c3ccccc3)C(=O)N2[C@H]1C(=O)O
[1]
  MIC: 0.25 µg/mL (≈ 0.534 µM)
Escherichia coli U 20
  MIC: 25 µg/mL (≈ 53.4 µM)
[2]
  MIC: > 100 µg/mL
[3]
  MIC: 50 µg/mL (≈ 107 µM)
[4]
  MIC: 0.12 µg/mL (≈ 0.256 µM)
Proteus mirabilis H 3
  MIC: 25 µg/mL (≈ 53.4 µM)
Proteus morganii 2241
  MIC: 100 µg/mL (≈ 213 µM)
Proteus rettgeri A 821
  MIC: 1.5 µg/mL (≈ 3.2 µM)
[5]
  MIC: 25 µg/mL (≈ 53.4 µM)
[6]
  MIC: > 50 µg/mL
[7]
  MIC: 50 µg/mL (≈ 107 µM)
Salmonella dublin P 43
  MIC: 25 µg/mL (≈ 53.4 µM)
[8]
  MIC: 25 µg/mL (≈ 53.4 µM)
[9]
  MIC: 3 µg/mL (≈ 6.4 µM)
[10]
  MIC: 1.5 µg/mL (≈ 3.2 µM)
[11]
  MIC: 0.5 µg/mL (≈ 1.07 µM)
[12]
  MIC: 3 µg/mL (≈ 6.4 µM)
[13]
  MIC: 1 µg/mL (≈ 2.13 µM)
[14]
  MIC: 0.03 µg/mL (≈ 0.064 µM)
[15]
  MIC: 1.5 µg/mL (≈ 3.2 µM)
Proteus mirabilis L 93
  MIC: 1.5 µg/mL (≈ 3.2 µM)
Shigella equirulis T 3
  MIC: 1.5 µg/mL (≈ 3.2 µM)
